Measured values from several laboratories, pooled; numbers as filed in NIAID ChemDB.

Shared fields: host cell toxicity; read-out: CC50

CCn: concentration that lowers growth or viability of the cells by n%. Neighbouring rows are from separate reports.

{"smiles": "O=c1sc2nc3c(c(=S)n2/c1=C/c1ccc(Cl)cc1)C1=C(CCC/C1=C\\c1ccncc1)C(c1ccncc1)S3", "cell line": "CNE-2", "method": "MTT", "result": "35.3 µM"}
{"smiles": "OC[C@H]1C[C@@H](n2cnc3cncnc32)CO1", "cell line": "ATH8", "result": ">100 µM"}
{"smiles": "Nc1nccc(OC[C@H]2CC[C@@H](CO)O2)n1", "cell line": "L1210", "result": ">250 µM"}
{"smiles": "CSc1nsc(-c2ccc(OS(=O)(=O)c3ccc(C)cc3)cc2)c1C#N", "cell line": "HELA-OHIO", "result": "25 µM"}
{"smiles": "O=C(NCc1ccc(Cl)cc1)c1cn2c(CCN3CCOCC3)cc3cc(CN4CCOCC4)cc(c1=O)c32", "cell line": "DAUDI", "method": "MTS", "result": "15.9 µM"}
{"smiles": "Nc1ncnc2c1ncn2[C@@H]1C[C@@](OCP(=O)(O)O)(C2CC2)[C@@H](O)[C@H]1O", "cell line": "T4", "method": "XTT / absorbance", "result": ">100 µM"}
{"smiles": "CCN1CCC(O)(/C=C/c2ccc(Cl)cc2)C(C(=O)/C=C/c2ccc(Cl)cc2)C1", "cell line": "55 different human tumor cells", "result": "12.01 µg/mL"}
{"smiles": "CS(=O)(=O)C1(c2ccc(C(=O)NC34CC(c5csc(-c6ccc(Cl)cc6)n5)(C3)C4)o2)CC1", "cell line": "Primary human hepatocytes", "method": "absorbance", "result": "39.46 µM"}
{"smiles": "COC(=O)CCCC1=NCCc2cc(OC)c(OC)cc21", "cell line": "BJ", "result": "<7.5 µM"}
{"smiles": "Nc1nc(OC[C@H]2CC[C@@H](COCc3ccccc3)O2)c2[nH]cnc2n1", "cell line": "PC-3", "result": "189 µM"}
{"smiles": "O=C(NCc1ccc(Cl)cc1)c1cn2c(CCO)cc3cc(CN4CCOCC4)cc(c1=O)c32", "cell line": "DAUDI", "method": "MTS", "result": ">104 µM"}
{"smiles": "CS(=O)(=O)C1(c2nsc(C(=O)NCCC3(c4ccnc(-c5ccc(Cl)cc5)n4)CCC3)n2)CC1", "cell line": "Primary human hepatocytes", "method": "absorbance", "result": "127 µM"}
{"smiles": "CCCCNC(=O)c1[nH]c2ccc(NS(=O)(=O)CCCC)cc2c1C", "cell line": "VERO", "method": "resazurin", "result": ">140 µM"}
{"smiles": "OC[C@H]1C[C@@H](n2cnc3c(Cl)ncnc32)CO1", "cell line": "ATH8", "result": ">100 µM"}
{"smiles": "CCCCS(=O)(=O)Nc1ccc2[nH]c(C(=O)N3CCN(C)CC3)c(C)c2c1", "cell line": "VERO", "method": "resazurin", "result": ">130 µM"}
{"smiles": "CC1(C)C2CC=C3C(CC[C@@]4(C)C5C[C@](C)(C(=O)O)CC[C@]5(C)CC[C@]34C)[C@@]2(C)CCC1(O)O", "cell line": "H522-TI", "result": ">20 µM"}
{"smiles": "Nc1cc(OC[C@H]2CC[C@@H](CO)O2)ncn1", "cell line": "CAKI-1", "result": "154 µM"}
{"smiles": "CS(=O)(=O)C1(c2cc(C(=O)NC34CC(c5nc(-c6ccc(Cl)cc6)no5)(C3)C4)ccn2)CC1", "cell line": "Primary human hepatocytes", "method": "absorbance", "result": "6.92 µM"}
{"smiles": "Fc1ccc(-c2nn3c(NC4CCCC4)cccc3c2-c2ccnc(NCCCN3CCOCC3)n2)cc1", "cell line": "VERO 76", "result": "15 µM"}
{"smiles": "CC1(C)CCC[C@]2(C)C3=C(C[C@H](C4=CCOC4=O)C3)C(=O)C[C@@H]12", "cell line": "P-388", "method": "absorbance", "result": "44.8 µM"}
{"smiles": "CS(=O)(=O)C1(c2cccc(C(=O)NC34CC(c5nc(-c6ccc(Cl)cc6)no5)(C3)C4)n2)CC1", "cell line": "Primary human hepatocytes", "method": "absorbance", "result": "8.32 µM"}
{"smiles": "CCCCS(=O)(=O)Nc1ccc2[nH]c(C(=O)NCC(C)C)c(C)c2c1", "cell line": "VERO", "method": "resazurin", "result": ">140 µM"}
{"smiles": "CSc1nsc(-c2ccc(O)cc2)c1C#N", "cell line": "L929", "result": "2 µM"}
{"smiles": "C=C(C)[C@@H]1CCC2(C(=O)OC)CC[C@]3(C)C(CCC4[C@@](C)(CC#N)C(C(C)(C)C(=O)Nc5nccs5)CC[C@]43C)C12", "cell line": "MS", "method": "MTT", "result": "85.2 µM"}
{"smiles": "CCCCS(=O)(=O)Nc1ccc2[nH]c(C(=O)NCc3ccccc3)c(C)c2c1", "cell line": "VERO", "method": "resazurin", "result": ">130 µM"}
{"smiles": "Fc1ccc(Nc2cccc3c(-c4ccnc(NC5CCCC5)n4)c(-c4ccc(F)cc4)nn23)cc1", "cell line": "VERO 76", "result": ">40 µM"}
{"smiles": "CS(=O)(=O)C1(c2ccc(C(=O)NC34CC(c5ncc(-c6ccc(Cl)c(Cl)c6)s5)(C3)C4)o2)CC1", "cell line": "Primary human hepatocytes", "method": "absorbance", "result": "29.86 µM"}
{"smiles": "CCOC(=O)CCCCCOc1cccc(CN(C(=O)c2ccc(-c3ccc(C(C)=O)s3)cc2)C(C)C)c1", "cell line": "HEK 293", "result": ">20 µM"}
{"smiles": "CS(=O)(=O)C1(c2ccc(C(=O)NC34CC(c5nc(-c6ccc(Cl)cc6)no5)(C3)C4)o2)CC1", "cell line": "Primary human hepatocytes", "method": "absorbance", "result": "112 µM"}
{"smiles": "Cc1nnc(-c2cccc(-c3ccc(C(=O)N(Cc4cccc(OCCCCCC(=O)OC(=O)O)c4)C(C)C)cc3)c2)o1", "cell line": "RAJI", "result": ">20 µM"}
{"smiles": "COc1ccc(Nc2cccc3c(-c4ccnc(NC5CCCC5)n4)c(-c4ccc(F)cc4)nn23)cc1", "cell line": "VERO 76", "result": ">40 µM"}
{"smiles": "Cc1nc2c(c(=N)n1Nc1ccccc1)C1=C(CCC/C1=C\\c1ccncc1)C(c1ccncc1)S2", "cell line": "CNE-2", "method": "MTT", "result": "12.6 µM"}
{"smiles": "CCCCCS(=O)(=O)Nc1ccc2[nH]c(C(=O)NC(C)(C)c3ccccc3)c(C)c2c1", "cell line": "VERO", "method": "resazurin", "result": ">110 µM"}
{"smiles": "C=CCCC1=NCC(O[Si](C)(C)C(C)(C)C)c2cc(OC)c(OC)cc21", "cell line": "HEK 293", "result": "<7.5 µM"}
{"smiles": "COc1cc(OC[C@H]2CC[C@@H](COCc3ccccc3)O2)nc(N)n1", "cell line": "L1210", "result": "70 µM"}
{"smiles": "Nc1ncnc2c1ncn2[C@H]1C=C[C@](OCP(=O)(O)O)(C2CC2)C1", "cell line": "T4", "method": "XTT / absorbance", "result": "90 µM"}
{"smiles": "N#Cc1c(N)c2c3c([nH]c2[nH]c1=O)SC(c1ccncc1)C1=C3/C(=C/c2ccncc2)CCC1", "cell line": "MGC-803", "method": "MTT", "result": "15.8 µM"}
{"smiles": "c1ccc(COC[C@H]2CC[C@@H](COc3cc(OC[C@H]4CC[C@@H](COCc5ccccc5)O4)ncn3)O2)cc1", "cell line": "CAKI-1", "result": "33 µM"}
{"smiles": "CCCCS(=O)(=O)Nc1ccc2[nH]c(C(=O)NC)c(C)c2c1", "cell line": "VERO", "method": "resazurin", "result": ">150 µM"}
{"smiles": "Nc1nc(N)nc(OC[C@H]2CC[C@@H](CO)O2)n1", "cell line": "CAKI-1", "result": "210 µM"}
{"smiles": "Fc1ccc(-c2nn3c(NC4CCCC4)cccc3c2-c2ccnc(Nc3ccccc3)n2)cc1", "cell line": "VERO 76", "result": ">40 µM"}
{"smiles": "Nc1nc(N)c2ncn([C@H]3CO[C@@H](CO)C3)c2n1", "cell line": "ATH8", "result": ">100 µM"}
{"smiles": "CCOC1N=C2C3=C(N=CN2N1c1ccccc1)SC(c1ccncc1)C1=C3/C(=C/c2ccncc2)CCC1", "cell line": "CNE-2", "method": "MTT", "result": "13.2 µM"}
{"smiles": "CCCCNc1nccc(-c2c(-c3ccc(F)cc3)nn3c(NCCCC)cccc23)n1", "cell line": "VERO 76", "result": ">160 µM"}
{"smiles": "Nc1nc(N)nc(OC[C@H]2CC[C@@H](COc3nc(N)nc(N)n3)O2)n1", "cell line": "PC-3", "result": ">250 µM"}
{"smiles": "O=C(NCc1cccs1)c1nn2c(c1Cl)NC(c1ccco1)CC2C(F)(F)F", "cell line": "CA32 replicon cells", "method": "ATP", "result": ">100 µM"}
{"smiles": "CSc1nsc(-c2ccc(OCc3ccccc3)cc2)c1C#N", "cell line": "L929", "result": ">50 µM"}